Here are results for one sequence from publication PMC11021369, “Resolving the polycistronic aftermath: Essential role of topoisomerase IA in preventing R-loops in Leishmania” (The Journal of Biological Chemistry, 2024).

For at least one entry, the source does not settle the construct or the ends of the probe. The comparison behind a weaker result is the experiment's own reference, which may not be listed here. Protein sequences can lack the tags named with them.

For the data set, the target named is T1, LdTOPIA (DNA topoisomerase IA) (Leishmania donovani DD8) (UniProt A0A3S7WW83).
T1 sequence (looked up): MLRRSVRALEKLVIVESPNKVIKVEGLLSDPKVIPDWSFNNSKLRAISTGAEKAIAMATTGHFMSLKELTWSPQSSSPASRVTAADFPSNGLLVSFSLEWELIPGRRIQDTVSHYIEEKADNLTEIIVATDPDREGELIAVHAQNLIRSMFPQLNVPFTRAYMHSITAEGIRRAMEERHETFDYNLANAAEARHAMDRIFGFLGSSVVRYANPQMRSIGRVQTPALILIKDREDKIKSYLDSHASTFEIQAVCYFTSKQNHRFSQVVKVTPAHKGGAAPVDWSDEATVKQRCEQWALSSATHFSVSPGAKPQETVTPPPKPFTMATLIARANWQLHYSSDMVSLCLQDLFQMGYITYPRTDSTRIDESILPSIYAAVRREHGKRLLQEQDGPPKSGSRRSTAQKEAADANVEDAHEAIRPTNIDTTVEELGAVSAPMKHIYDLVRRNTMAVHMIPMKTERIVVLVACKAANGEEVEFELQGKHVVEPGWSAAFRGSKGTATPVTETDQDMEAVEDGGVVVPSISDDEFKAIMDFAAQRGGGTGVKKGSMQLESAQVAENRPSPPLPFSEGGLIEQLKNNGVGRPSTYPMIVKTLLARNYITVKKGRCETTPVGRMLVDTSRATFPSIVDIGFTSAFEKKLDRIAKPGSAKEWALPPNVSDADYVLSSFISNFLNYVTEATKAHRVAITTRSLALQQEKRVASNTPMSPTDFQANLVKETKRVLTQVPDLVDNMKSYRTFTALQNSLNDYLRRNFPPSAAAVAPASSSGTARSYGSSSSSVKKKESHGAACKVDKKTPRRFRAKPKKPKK
Briefly: EMSA. The note with it: 100 nM DNA, 5-200 nM protein, 0.5 mM EDTA, 50 mM Tris pH 7.5, 100 mM NaCl, 0.5 mM DTT, 5% glycerol, 15 min, 25 °C (EMSA gel at 4 °C), recombinant protein, residues 1-809, protein details: N-term 7xHis, C-term 6xHis, label: 5' 32P. For orientation: A gel shift assay detects complexes by their altered migration in electrophoresis.

In the case of “TATTGGGCGCTCTTCCGCTTCCTCGCTCACTG (double strand) [32-bp dsDNA, 32P]”, the binding result is “binds more weakly”.
